Pooled drug test results. Numbers come from NIAID ChemDB, via PubChem.

Shared fields: tests in culture; organism: Mycobacterium fortuitum; measure: MIC50

MIC50, MIC90 and the like: level of inhibition, or share of isolates inhibited.

smiles,strain or isolate,value
C[C@H]1c2cccc(O)c2C(O)=C2C(=O)[C@]3(O)C(O)=C(C(N)=O)C(=O)[C@@H](N(C)C)[C@@H]3[C@@H](O)[C@@H]21,10 strains,4 µg/mL
NNC(=O)c1ccncc1,,2 µg/mL
CO[C@H]1/C=C/O[C@@]2(C)Oc3c(C)c(O)c4c(O)c(c(/C=N/N5CCN(C)CC5)c(O)c4c3C2=O)NC(=O)/C(C)=C\C=C\[C@H](C)[C@H](O)[C@@H](C)[C@@H](O)[C@@H](C)[C@H](OC(C)=O)[C@@H]1C,20 strains,50 µg/mL
CO[C@@]1(NC(=O)Cc2cccs2)C(=O)N2C(C(=O)O)=C(COC(N)=O)CS[C@@H]21,13 strains,12.5 µg/mL
CC[C@H]1OC(=O)[C@H](C)[C@@H](O[C@H]2C[C@@](C)(OC)[C@@H](O)[C@H](C)O2)[C@H](C)[C@@H](O[C@@H]2O[C@H](C)C[C@H](N(C)C)[C@H]2O)[C@](C)(O)C[C@@H](C)CN(C)[C@H](C)[C@@H](O)[C@]1(C)O,48 strains,>64 µg/mL
C[C@H]1c2cccc(O)c2C(O)=C2C(=O)[C@]3(O)C(O)=C(C(N)=O)C(=O)[C@@H](N(C)C)[C@@H]3[C@@H](O)[C@@H]21,18 strains,8 µg/mL
CC[C@H](C)N1CCN(c2cc(=O)c3nc4c(oc3c2)c2c(=O)c3c(O)c(C)c5c(c34)=C(O)[C@@](C)(O/C=C/[C@H](OC)[C@@H](C)[C@@H](OC(C)=O)[C@H](C)[C@H](O)[C@H](C)[C@@H](O)[C@@H](C)/C=C/C=C(/C)C(=O)N2)O5)CC1,20 strains,25 µg/mL
CCn1cc(C(=O)O)c(=O)c2cc(F)c(-n3cccc3)cc21,19 strains,32 µg/mL
CC[C@H]1OC(=O)[C@H](C)C(=O)[C@H](C)[C@@H](O[C@@H]2O[C@H](C)C[C@H](N(C)C)[C@H]2O)[C@](C)(OC)C[C@@H](C)C(=O)[C@H](C)[C@H]2N(CCCCn3cnc(-c4cccnc4)c3)C(=O)O[C@]12C,48 strains,>64 µg/mL
N[C@@H]1CONC1=O,,>128 µg/mL
CN[C@@H]1[C@@H](O)[C@@H](O[C@@H]2[C@@H](O)[C@H](O[C@H]3O[C@H](CN)CC[C@H]3N)[C@@H](N)C[C@H]2N)OC[C@]1(C)O,18 strains,8 µg/mL
NCC[C@H](O)C(=O)N[C@@H]1C[C@H](N)[C@@H](O[C@H]2O[C@H](CN)[C@@H](O)[C@H](O)[C@H]2O)[C@H](O)[C@H]1O[C@H]1O[C@H](CO)[C@@H](O)[C@H](N)[C@H]1O,,2 µg/mL
CNn1cc(C(=O)O)c(=O)c2cc(F)c(N3CCN(C)CC3)cc21,19 strains,1 µg/mL
NC[C@H]1O[C@H](O[C@H]2[C@H](O)[C@@H](O[C@H]3O[C@H](CO)[C@@H](O)[C@H](N)[C@H]3O)[C@H](N)C[C@@H]2N)[C@H](N)C[C@@H]1O,18 strains,16 µg/mL
CN1CCN(c2cc3c(cc2F)c(=O)c(C(=O)O)cn3-c2ccc(F)cc2)CC1,19 strains,1 µg/mL
C[C@@H]1CN(c2c(F)c(N)c3c(=O)c(C(=O)O)cn(C4CC4)c3c2F)C[C@H](C)N1,,1.5 µg/mL
CCNCC1CCN(c2c(F)cc3c(=O)c(C(=O)O)cn(CC)c3c2F)C1,19 strains,1 µg/mL
CCC(C)N1CCN(c2cc(=O)c3nc4c(oc3c2)c2c(=O)c3c(O)c(C)c5c(c34)=C(O)[C@@](C)(O/C=C/[C@H](OC)[C@@H](C)[C@@H](OC(C)=O)[C@H](C)[C@H](O)[C@H](C)[C@@H](O)[C@@H](C)/C=C/C=C(/C)C(=O)N2)O5)CC1,20 strains,25 µg/mL

Repeating the first 2 entries:

C[C@H]1c2cccc(O)c2C(O)=C2C(=O)[C@]3(O)C(O)=C(C(N)=O)C(=O)[C@@H](N(C)C)[C@@H]3[C@@H](O)[C@@H]21 ; strain or isolate: 10 strains ; value: 4 µg/mL
NNC(=O)c1ccncc1 ; value: 2 µg/mL

Neighbouring rows are from separate reports. Blank or dashed fields: not listed here.